Measurements reported in PubChem BioAssay AID504761 (Drosophila RNAi Screening Center, 2011)
The deposit covers about 22,000 reagents; this is a random part of those that have a named target and a result. Over the whole deposit, 116 (0.52%) are marked active. 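Calls depend on retest data that are not deposited; infection was ranked per plate without normalising between plates; the unit of the infection score is not given.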 The raw values are shown without normalisation. Reagents against one gene are numbered here. Names joined by + are all predicted targets of the reagent. Not given: the amount of reagent, the time to read-out.

Aim: 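Fly genes whose silencing reduces dengue virus type 2 infection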 (primary screen)
System: D.Mel-2 cells from Drosophila
Knock-down reagent: long dsRNA against Drosophila genes
Conditions: infection with dengue virus type 2; dose and infection time not stated
Measurement: 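Per well on two replicate plates, imaging gave the percent of cells positive for viral envelope protein, ranked by infection, and a nuclear count of cells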
Direction: infection score: higher = more virus-infected cells; cell count: higher = more cells in the well
Active means: 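Low infection ranks in the two replicates (chance level up to 0.065) followed by a retest with a 1.5-fold or larger significant decrease, p below 0.05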
Meaning of the calls: active = confirmed: knock-down lowers infection; inactive = not picked or not confirmed

no.	gene	dsRNA no.	infection score, replicate 1	infection score, replicate 2	cell count, replicate 1	cell count, replicate 2	call
1	ppk9	1	6.09	23.9	6418	6093	inactive
2	ppk9	2	16.8	25	6351	6137	inactive
3	EMRE	1	7	25.3	6476	4570	inactive
4	CG5399	1	2.14	2.98	6116	6608	inactive
5	CG5399	2	3.74	2.19	6844	6297	inactive
6	CG5050	1	6.25	7.8	6605	6606	inactive
7	Ilp4	1	3.35	3.87	5886	6225	inactive
8	Ilp4	2	0.89	2.39	6438	5487	inactive
9	CG14177 (retired record)	1	3.51	2.19	6009	6836	inactive
10	CG14177 (retired record)	2	8.51	13.5	6677	6183	inactive
11	Cpr30F	1	11.4	6.97	6290	6274	inactive
12	Cpr30F	2	3.93	4.31	6239	6082	inactive
13	a6	1	3.76	2.12	5697	6266	inactive
14	CG10053	1		20.6	458	4280	inactive
15	CG10053	2	4.63	5.72	6263	6117	inactive
16	Gbp1	1	17.4	14.6	5993	6293	inactive
17	CG16713	1	3.13	1.8	6846	6818	inactive
18	CG10512	1	3.99	4.67	6665	6165	inactive
19	CG10512	2	9.55	13.6	6335	6286	inactive
20	HemK1	1	3.41	3.03	6535	6558	inactive
21	xmas	1	16	9.11	5477	4753	inactive
22	xmas	2	8.68	1.95	5645	6349	inactive
23	Akt	1	7.75	1.83	6997	7100	inactive
24	CG40439	1	2.78	1.88	6839	6954	inactive
25	CG40439	2	8.96	0.93	6071	6012	inactive
26	CG34140 + Mkp	1	9.03	21.4	6411	6358	inactive
27	CG12320	1	0.85	4.71	6668	5797	inactive
28	CG13077	1	10.7	16.5	5506	3975	inactive
29	CG13532	1	5.08	4.59	6382	6729	inactive
30	DIP-eta	1	3.31	4.26	6547	6311	inactive
31	MtnD	1	6.43	9.37	6828	6246	inactive
32	GPHR	1	9.9	5.97	6139	6504	inactive
33	CG5989	1	3.52	9.23	6593	6590	inactive
34	CG13155	1	11.3	2.72	6451	6512	inactive
35	CG13202	1	7.08	14.8	2104	5972	inactive
36	Gmap	1	2.49	1.33	6068	6636	inactive
37	Gmap	2	7.36	6.51	4673	5687	inactive
38	Gmap	3	7.46	5.34	4815	4941	inactive
39	tum	1	16.2	24.6	5010	2207	inactive
40	RabX1	1	14.4	16.8	6286	6143	inactive
41	sigmar	1	6.15	5.89	6135	6283	inactive
42	sick	1	3.9	8.5	6334	5602	inactive
43	sick	2	6.42	1.5	5572	6524	inactive
44	sick	3	4.41	2.31	974	6624	inactive
45	sick	4	11.3	1.25	5285	960	inactive
46	Timp	1	15	16.7	5923	6095	inactive
47	CG18558	1	33.3	11.2	6402	6790	inactive
48	dysf	1	3	6.17	6039	6478	inactive
49	dysf	2	2.45	1.9	6365	7052	inactive
50	dysf	3	1.06	1.83	6953	6356	inactive
51	kermit	1	21.5	7.9	5485	6126	inactive
52	kermit	2	5.45	2.08	6408	6262	inactive
53	CG13117	1	7.28	5.83	6267	5985	inactive
54	CG13117	2	7.93	14.8	6430	6086	inactive
55	CG9072	1	8.11	2.66	6483	6493	inactive
56	Pex23	1	8.99	5.91	3493	6325	inactive
57	Pex23	2	16.8	15.5	5136	5346	inactive
58	Pex23	3	5.24	21.5	802	5894	inactive

Sorted by “infection score, replicate 2” (high to low): some entries from above.
gene	dsRNA no.	infection score, replicate 1	infection score, replicate 2	cell count, replicate 1	cell count, replicate 2	call
CG13202	1	7.08	14.8	2104	5972	inactive
CG5989	1	3.52	9.23	6593	6590	inactive
GPHR	1	9.9	5.97	6139	6504	inactive
CG13155	1	11.3	2.72	6451	6512	inactive
